Reference: article PMC10331576, “Inhibition of SARS‐CoV‐2‐mediated thromboinflammation by CLEC2.Fc” (EMBO Molecular Medicine, 2023)

Biological target: COVID-2019-Spike-328-585 (RBD) (SARS-CoV-2)
Assay: BLI; […] (HIS1K) […] (50 μM, 31 μM, and 8.8 μM); 30°C, PBS; 1:1 binding model; Octet HTX
Conditions: both partners purified

B1: human CLEC2.Fc fusion protein (Fc fusion)
chain: SVMQRNYLQGENENRTGTLQQLAKRFCQYVVKQSELKGTFKGHKCSPCDTNWRYYGDSCYGFFRHNLTWEESKQYCTDMNATLLKIDNRNIVEYIKARTHLIRWVGLSRQKSNEVWKWEDGSVISENMFEFLEDGKGNMNCAYFHNGKMHPTFCENKHYLMCERKAGMTKVDQLP
notes: also called hCLEC2.Fc; source: 293T cells, transfected
Kd: 7.92 µM
